What all share (assay): cell-based or functional assay
Assay [1] concerns the target HIV-1 clade D Env pseudoviruses of the cross-clade 162-pseudovirus panel (n=25).
In assay [2] the target is HIV-1 clade B Env pseudoviruses of the cross-clade 162-pseudovirus panel (n=31).
Assay [3] concerns the target HIV-1 clade AG Env pseudoviruses of the cross-clade 162-pseudovirus panel (n=10).
Assay [4] concerns the target HIV-1 clade F Env pseudoviruses of the cross-clade 162-pseudovirus panel (n=15).
Assay [5] addresses HIV-1 clade G Env pseudoviruses of the cross-clade 162-pseudovirus panel (n=15).
In assay [6] the target is HIV-1 clade A Env pseudoviruses of the cross-clade 162-pseudovirus panel (n=26).
In assay [7] the target is HIV-1 clade C Env pseudoviruses of the cross-clade 162-pseudovirus panel (n=27).
For assay [8], the target named is HIV-1 Env of all pseudoviruses of the cross-clade 162-pseudovirus panel (n = 162).
The target in assay [9] is HIV-1 clade AE Env pseudoviruses of the cross-clade 162-pseudovirus panel (n=10).
Assay [10] addresses panel of 22 HIV-1 pseudoviruses of Table 52.
Assay [11] concerns the target All HIV-1 Env pseudoviruses of the cross-clade 162-pseudovirus panel (n=162).
Assay [12] addresses 162-pseudovirus panel representing all major circulating HIV-1 subtypes.
Assay [13] deals with HIV-1 Env of the clade F pseudoviruses of the cross-clade 162-pseudovirus panel (n = 15).

Here are results for ten molecules from patent publication US20240132578A1.

B1: 5147_N06 (PGT-130) (antibody, V domains shown)
VH: QVQLQESGPGLVKPAETLSLTCSVSGESINTGHYYWGWVRQVPGKGLEWIGHIHYTTAVLHNPSLKSRLTIKIYTLRNQITLRLSNVTAADTAVYHCVRSGGDILYYYEWQKPHWFSPWGPGIHVTVSS
VL: QSALTQPPSASGSLGQSVTISCNGTSSDIGGWNFVSWYQQFPGRAPRLIIFEVNKRPSGVPGRFSGSKSGNSASLTVSGLQSDDEGQYFCSSLFGRWDVVFGGGTKLTVL
Consider B1, for which the Median IC50 (µg/ml) against viruses neutralized with an IC50 <50 µg/ml (section D) worked out at 3.18 µg/mL in assay [1]; 0.77 µg/mL in assay [2]; 0.07 µg/mL in assay [3]; 4.84 µg/mL in assay [4]; 28.1 µg/mL in assay [5]; 4.99 µg/mL in assay [6]. The values for the Median IC50 (µg/ml) against viruses neutralized with an IC50 <50 µg/ml (section D) in [7] and in assay [9] were 2.67 µg/mL and 0.08 µg/mL, respectively. For the same molecule, the Median IC50 (µg/ml) against viruses neutralized with an IC50 <50 µg/ml in assay [8] stood at 0.18 µg/mL.

B2: PGT-141 (4964_G22; 4993_K13) (antibody, V domains shown)
VH: QVQLVQSGPEVKKPGSSVKVSCKASGNTFSKYDVHWVRQATGQGLEWVGWMSHEGDKTESAQRFKGRVTFTRDTSASTAYMELRGLTSDDTAIYYCTRGSKHRLRDYVLYDDYGLINYQEWNDYLEFLDVWGHGTAVTVSS
VL: DTVVTQSPLSLPVTPGEAASMSCSSTQSLRHSNGANYLAWYQHKPGQSPRLLIRLGSQRASGVPDRFSGSGSGTHFTLKISRVEAEDAAIYYCMQGLNRPWTFGKGTKLEIK
In the case of B2, the median IC50, pseudovirus neutralization in [10] amounted to 0.5 µg/mL.

B3: PGT-143 (4980_N08) (antibody, V domains shown)
VH: QVQLEQSGAEVKKPGSSVKVSCKASGNTFSKYDVHWVRQATGQGLEWVGWMSHEGDKTESAQRFKGRVTFTRDTSASTAYMELRGLTSDDTAIYYCTRGSKHRLRDYVLYDDYGLINYQEWNDYLEFLDVWGHGTAVTVSS
VL: DTVVTQSPLSLPVTPGEAASMSCTSTQSLRHSNGANYLAWYQHKPGQSPRLLIRLGSQRASGVPDRFSGSGSGTHFTLKISRVEPEDAAIYYCMQGLNRPWTFGKGTKLEIK
Molecule B3 returned a median IC50, pseudovirus neutralization in assay [10] of 0.37 µg/mL.

B4: PGT-144 (4970_K22) (antibody, V domains shown)
VH: QVQLVQSGAEVKKPGSSVKVSCKASGNTFRKYDVHWVRQATGQGLEWVGWMSHEGDKTESAQRFKGRVSFTRDNSASTAYIELRGLTSDDTAIYYCTGGSKHRLRDYVLYDDYGLINQQEWNDYLEFLDVWGHGTAVTVSS
VL: DTVVTQSPLSLSVTPGEAASMSCTSTQSLRHSNGANYLAWYQHKPGQSPRLLIRLGSQRASGVPDRFSGSGSGTHFTLKISRVEADDAAIYYCMQGLNRPWTFGKGTKLEIK
In assay [10], B4 displayed a median IC50, pseudovirus neutralization of 0.16 µg/mL.

B5: 4970_K22 (PGT-144) (antibody, V domains shown)
VH: QVQLVQSGAEVKKPGSSVKVSCKASGNTFRKYDVHWVRQATGQGLEWVGWMSHEGDKTESAQRFKGRVSFTRDNSASTAYIELRGLTSDDTAIYYCTGGSKHRLRDYVLYDDYGLINQQEWNDYLEFLDVWGHGTAVTVSS
VL: DTVVTQSPLSLSVTPGEAASMSCTSTQSLRHSNGANYLAWYQHKPGQSPRLLIRLGSQRASGVPDRFSGSGSGTHFTLKISRVEADDAAIYYCMQGLNRPWTFGKGTKLEIK
Turning to B5, the Median IC50 (µg/ml) against all viruses in assay [1], in assay [2], in assay [11], in assay [3], in assay [5] and in assay [9] was greater than 50 µg/mL in each case. In [12], the Percent viruses neutralized, IC50 < 0.1 µg/ml is 3%.

B6: PGT-142 (4995_E20) (antibody, V domains shown)
VH: QVQLVQSGPEVKKPGSSVKVSCKASGNTFSKYDVHWVRQATGQGLEWVGWISHERDKTESAQRFKGRVTFTRDTSATTAYMELRGLTSDDTAIYYCTRGSKHRLRDYVLYDDYGLINYQEWNDYLEFLDVWGHGTAVTVSS
VL: DTVVTQSPLSLPVTPGEAASMSCSSTQSLRHSNGANYLAWYQHKPGQSPRLLIRLGSQRASGVPDRFSGSGSGTHFTLKISRVEAEDAAIYYCMQGLNRPWTFGKGTKLEIK
In the case of B6, the median IC50, pseudovirus neutralization in [10] was determined as 0.25 µg/mL.

B7: 5345_I01 (PGT-137) (antibody, V domains shown)
VH: EVHLEESGPGLVRPSETLSLTCTASGGSIRGGEWGDSDYHWGWVRHSPEKGLEWIGSIHWRGTTHYNAPFRGRGRLSIDLSRNQFSLRLTSVTAEDTAVYYCVKHKYHDIVMVVPIAGWFDPWGQGLQVTVSS
VL: EIMMTQSPAILSVSPGDRATLSCRASQSVKNNLAWYQKRPGQAPRLLIFDTSSRASGIPARFSGGGSGTEFTLTVNSMQSEDFATYYCQQYEEWPRTFGQGTKVEIK
In the case of B7, the Median IC50 (µg/ml) against all viruses in [1], in [11], in [3], in [4], in assay [5] and in [7] was greater than 50 µg/mL throughout. Moreover, the Median IC50 (µg/ml) against all viruses in assay [9] was greater than 50 µg/mL. The same molecule gave a Percent viruses neutralized, IC50 < 0.1 µg/ml in assay [12] of 4%. Further, in assay [12], the Percent viruses neutralized, IC50 < 1 µg/ml was 8%.

B8: 5136_H01 (PGT-131) (antibody, V domains shown)
VH: QVQLQESGPGLVKPSETLSLTCTVSGDSINTGHHYWGWVRQVPGKGPEWIAHIHYNTAVLHNPALKSRVTISIFTLKNLITLSLSNVTAADTAVYFCVRSGGDILYYIEWQKPHWFYPWGPGILVTVSS
VL: QSALTQPPSASGSLGQSLTISCSGTGSDIGSWNFVSWYQQFPGRAPNLIIFEVNRRRSGVPDRFSGSKSGNTASLTVSGLRSEDEAEYFCSSLSGRWDIVFGGGTKVTVL
For B8, the Median IC50 (µg/ml) against viruses neutralized with an IC50 <50 µg/ml (section D) in assay [1] worked out at 2.67 µg/mL; in [2], 0.5 µg/mL; in assay [3], 0.16 µg/mL; in assay [4] it was 1.92 µg/mL; in [6] it was 0.73 µg/mL; in assay [7], 15.8 µg/mL. In addition, in assay [9], the Median IC50 (µg/ml) against viruses neutralized with an IC50 <50 µg/ml (section D) was 0.21 µg/mL. Besides, the Median IC50 (µg/ml) against viruses neutralized with an IC50 <50 µg/ml in assay [13] stood at 0.55 µg/mL. The Percent viruses neutralized, IC50 < 50 µg/ml in assay [12] came out at 40%.

B9: 5141_B17 (PGT-126) (antibody, V domains shown)
VH: QPQLQESGPGLVEASETLSLTCTVSGDSTAACDYFWGWVRQPPGKGLEWIGGLSHCAGYYNTGWTYHNPSLKSRLTISLDTPKNQVFLKLNSVTAADTAIYYCARFDGEVLVYHDWPKPAWVDLWGRGTLVTVSS
VL: QSALTQPPSASGSPGQSISISCTGTSNRFVSWYQQHPGKAPKLVIYGVNKRPSGVPDRFSGSKSGNTASLTVSGLQTDDEAVYYCSSLVGNWDVIFGGGTKLTVL
As to B9, the Median IC50 (µg/ml) against viruses neutralized with an IC50 <50 µg/ml (section D) in assay [1] worked out at 0.33 µg/mL; in [2] it was 0.17 µg/mL; in assay [3] it was 0.06 µg/mL; in assay [4], 1 µg/mL; in [5] it was 0.17 µg/mL; in assay [6] it was 0.06 µg/mL. Besides, the values for the Median IC50 (µg/ml) against viruses neutralized with an IC50 <50 µg/ml (section D) in assay [7] and in [9] were 0.96 µg/mL and 19.6 µg/mL, respectively. Further, the Median IC50 (µg/ml) against viruses neutralized with an IC50 <50 µg/ml in assay [13] was determined as 0.05 µg/mL; in assay [8] it was 0.04 µg/mL; in [12] it was 0.04 µg/mL. Also, the Percent viruses neutralized, IC50 < 0.1 µg/ml in assay [12] came to 40%. The molecule further displayed a Percent viruses neutralized, IC50 < 1 µg/ml in [12] of 50%. This molecule also registered a Percent viruses neutralized, IC50 < 50 µg/ml in assay [12] of 60%.

B10: 5123_A06 (PGT-125) (antibody, V domains shown)
VH: QSQLQESGPRLVEASETLSLTCNVSGESTGACTYFWGWVRQAPGKGLEWIGSLSHCQSFWGSGWTFHNPSLKSRLTISLDTPKNQVFLKLTSLTAADTATYYCARFDGEVLVYNHWPKPAWVDLWGRGIPVTVSS
VL: QSALTQPPSASGSPGQSITISCNGTATNFVSWYQQFPDKAPKLIIFGVDKRPPGVPDRFSGSRSGTTASLTVSRLQTDDEAVYYCGSLVGNWDVIFGGGTTLTVL
Consider B10, for which the Median IC50 (µg/ml) against viruses neutralized with an IC50 <50 µg/ml (section D) worked out at 0.87 µg/mL in assay [1]; 0.13 µg/mL in [2]; 0.05 µg/mL in [3]; 0.37 µg/mL in assay [4]; 0.05 µg/mL in assay [5]; 0.07 µg/mL in [6]. Besides, the Median IC50 (µg/ml) against viruses neutralized with an IC50 <50 µg/ml (section D) in [7] worked out at 0.18 µg/mL; in assay [9], 0.22 µg/mL. For the same molecule, the Median IC50 (µg/ml) against viruses neutralized with an IC50 <50 µg/ml in assay [8] and in assay [12] was 0.04 µg/mL in each case. Further, in assay [12], the Percent viruses neutralized, IC50 < 1 µg/ml was 40%.
